Anti-infective test results gathered from many reports (values: NIAID ChemDB through PubChem).

Shared fields: whole-cell or culture tests; organism: HIV-1; read by: RT activity; read-out: EC50

ECn: concentration that inhibits the pathogen or its effect by n%. An empty or dashed field is not shown. Rows are shuffled and stem from different studies.

smiles	mutations	cell line	strain or isolate	result
Cc1cn([C@H]2C[C@H](N=[N+]=[N-])[C@@H](CO)O2)c(=O)[nH]c1=O	RT-M41L E44D D67N T69D Y118I M184V L210W T215Y	PBMC	4755-5 NRTI resistant recombinant	0.0154 µM
Nc1nc(=O)n([C@@H]2CO[C@H](CO)S2)cc1F	RT-M41L K70R T215Y	CBMC	4242 (RT-M41L K70R T215Y)	0.4 µM
O=c1[nH]cnc2c1ncn2[C@H]1CC[C@@H](CO)O1		MT-2	PDBC	2.7 µM
Cc1ccnc2c1NC(=O)c1cccnc1N2C1CC1		MT-4	HXB2D	0.024 µM
CCCc1cc(=O)oc2c3c(c4c(c12)OC(C)(C)C=C4)O[C@H](C)[C@@H](C)[C@@H]3O		PBMC	CLADE B	0.2 µM
CC(C)(C)NC(=O)[C@@H]1CN(Cc2cccnc2)CCN1C[C@@H](O)C[C@@H](Cc1ccccc1)C(=O)N[C@H]1c2ccccc2C[C@H]1O	RT-D67N T69N K70R M184V T215F K219Q	PBMC	7295-1 NRTI resistant recombinant	0.0014 µM
Cc1cn([C@H]2C[C@H](N=[N+]=[N-])[C@@H](CO)O2)c(=O)[nH]c1=O		CBMC	4246	0.008 µM
Nc1ccn([C@@H]2CS[C@H](CO)O2)c(=O)n1	RT-M41L D67N T69N K70R T215F K219E	PBMC	7324-1 NRTI resistant recombinant	0.634 µM
Cc1ccnc2c1NC(=O)c1cccnc1N2C1CC1		PBMC	CLADE A	0.06 µM
CC(C)=CCN1Cc2cccc3[nH]c(=S)n(c23)C[C@@H]1C		MT-2	HX	0.13 µM
Nc1ccn([C@H]2CC[C@@H](CO)O2)c(=O)n1	RT-M184V P294S	MT-4	HXB2-D184+294 (RT M184V P294S)	2.6 µM
CCCc1cc(=O)oc2c3c(c4c(c12)OC(C)(C)C=C4)O[C@@H](C)[C@H](C)[C@@H]3O		PBMC	CLADE E	0.4 µM
COC(=O)[C@H](C)NP(=O)(OC[C@@H]1C=C[C@H](n2cc(C)c(=O)[nH]c2=O)O1)Oc1ccc(Br)cc1	RT-T69K K70G V75I F77L F116Y Q151M M184V	PBMC	56252-1 NRTI resistant recombinant	0.0063 µM
Cc1cn([C@H]2C[C@H](N=[N+]=[N-])[C@@H](CO)O2)c(=O)[nH]c1=O		PBMC	CLADE C	0.007 µM
Nc1nc(=O)n([C@H]2CO[C@@H](CO)S2)cc1F		CBMC	HXB2D	3.4 µM

Repeating the final 2 entries:

smiles,mutations,cell line,strain or isolate,result
Cc1cn([C@H]2C[C@H](N=[N+]=[N-])[C@@H](CO)O2)c(=O)[nH]c1=O,,PBMC,CLADE C,0.007 µM
Nc1nc(=O)n([C@H]2CO[C@@H](CO)S2)cc1F,,CBMC,HXB2D,3.4 µM